Test results from article PMC9239272 (mBio, 2022).

System: SARS2 M^pro
Assay: Luciferase-based gain-of-signal reporter (Src-Mpro-Tat-Luc), wild-type
Format: cell-based, SARS-CoV-2
Settings: for Mean S:B (signal to background): 293T cells, normalized to DMSO; for increase over background luminescence: background normalized to 1

CC(C)C[C@H](NC(=O)OCc1ccccc1)C(=O)N[C@@H](C[C@@H]1CCNC1=O)C(O)S(=O)(=O)O (some centres unmarked)
Mean S:B (signal to background) (0.05 µM): 1.3 | Mean S:B (signal to background) (0.10 µM): 1.7 | Mean S:B (signal to background) (0.20 µM): 2.2 | increase over background luminescence (200 nM compound): 2 fold | Mean S:B (signal to background) (0.39 µM): 3.4 | Mean S:B (signal to background) (0.78 µM): 5.0 | Mean S:B (signal to background) (1.56 µM): 7.7 | Mean S:B (signal to background) (3.13 µM): 11.3 | Mean S:B (signal to background) (6.25 µM): 16.4 | Mean S:B (signal to background) (12.5 µM): 22.8 | Mean S:B (signal to background) (25 µM): 31.7 | Mean S:B (signal to background) (50 µM): 48.2 | increase over background luminescence (100 μM compound): 100 fold | Mean S:B (signal to background) (100 µM): 99.7
